# Read-outs that look alike come from different tables or passages of the source.
# Legend:
# [1] = target: T1, SARS-CoV-2 Spike on pseudotyped virus (PsV) (SARS-CoV-2, UniProt P0DTC2 14-1273); assay: cell-based or functional assay
# [2] = target: T2, SARS-CoV-2 receptor binding domain (RBD), wild type (BEI NR52309) (SARS-CoV-2, UniProt P0DTC2 319-541); assay: method and antibody format not given
# [3] = target: T1, SARS-CoV-2 Spike on pseudotyped virus …; assay: cell-based or functional assay; remark: listed apart in the source
# [4] = target: T2, SARS-CoV-2 receptor binding domain …; assay: method and antibody format not given; remark: listed apart in the source
Binder,"Median IC50, SARS-CoV-2 PsV neutralization [1] [µg/mL]",Kd [2] [nM],"IC50 SARS-CoV2 PsV, IgG [3] [µg/mL]",Kd [4] [nM]
"mAb 298 (antibody, V domains shown) VH: QVQLVQSGAEVKKPGASVKVSCKASGGTFSTYGISWVRQAPGQGLEWMGWISPNSGGTDLAQKFQGRVTMTRDTSTSTVYMELSSLRSEDTAVYYCASDPRDDIAGGYWGQGTLVTVSS VL: not shown",0.28,24,–,–
"mAb 80 (antibody, V domains shown) VH: QVQLVQSGAEVKKPGSSVKVSCKASGGTFNRYAFSWVRQAPGQGLEWMGGIIPIFGTANYAQKFQGRVTITADESTSTAYMELSSLRSEDTAVYYCARSTRELPEVVDWYFDLWGRGTLVTVSS VL: DIVMTQSPDSLAVSLGERATINCKSSQSVLYSSNNKNYLAWYQQKPGQPPKLLIYWASTRESGVPDRFSGSGSGTDFTLTISSLQAEDVAVYYCQQYYSAPLTFGGGTKVEIKR",0.1,–,0.1,142
